# Columns and labels:
# Assay in all cases: EMSA
# Details in all cases: EMSA: 20 mM Tris-HCl pH 8.0, 150 mM NaCl, 7% glycerol, 10 nM DNA, 10 min, temperature not stated; NMR: 50 mM sodium phosphate pH 7.2, 0.1 mM NaN3, 30 C
# [1] = test system: HUSpm_K88A (Spiroplasma melliferum), PDB:5L8Z_1
# [2] = test system: HUSpm_R57A (Spiroplasma melliferum), PDB:5L8Z_1
# [3] = test system: HUSpm_K80A (Spiroplasma melliferum), PDB:5L8Z_1
sequence,measurement,setting,value
AGTCTAGAGTGCAGTTGAGTCCTTGCTACGACGGATCCCTTAGGTCAG (double strand) [DS48 (48)],Kd,[1],390 nM
same,Kd,[2],788 nM
same,Kd,[3],163 nM
AGTCTAGAGTGCAGTTGAGTCCTTGCTACGACGGATCCCTTAGGTCAG / CTGACCTAAGGGATCCGTCGTAGCAAGAAAAAAAGACTCAACTGCACTCTAGACT [A7 bulge (A7)],Kd,[1],51 nM
same,Kd,[2],121 nM
same,Kd,[3],13 nM
AGTCTAGAGTGCAGTTGAGTCCTTGCTACGACGGATCCCTTAGGTCAG / AAGGACTCAACTGCACTCTAGACT / CTGACCTAAGGGATCCGTCGTAG [Nick (N)],Kd,[1],220 nM
same,Kd,[2],398 nM
same,Kd,[3],69 nM
AGTCTAGAGTGCAGTTGAGTCCTTGCTACGACGGATCCCTTAGGTCAG / CTGACCTAAGGGATCCGTCGTAGCAAGAGACTCAACTGCACTCTAGACT [A1 bulge (A1)],Kd,[1],83 nM
same,Kd,[2],175 nM
same,Kd,[3],41 nM
AGTCTAGAGTGCAAGTTGAGTCCTT / AAGGACTCAACTGCACTCTAGACT [DS24a (24a)],Kd,[1],84 nM
same,Kd,[2],230 nM

# From article PMC7493962, “Structure-based inhibitors targeting the alpha-helical domain of the Spiroplasma melliferum histone-like HU protein” (Scientific Reports, 2020)
